Reference: PMC5705639 (Scientific Reports, 2017)

The chains behind the UniProt entries cited, without tags or fusion partners. Where a name states a change or a piece, a line headed by the entry shows the natural chain unless it says otherwise.
UniProt Q93UJ2: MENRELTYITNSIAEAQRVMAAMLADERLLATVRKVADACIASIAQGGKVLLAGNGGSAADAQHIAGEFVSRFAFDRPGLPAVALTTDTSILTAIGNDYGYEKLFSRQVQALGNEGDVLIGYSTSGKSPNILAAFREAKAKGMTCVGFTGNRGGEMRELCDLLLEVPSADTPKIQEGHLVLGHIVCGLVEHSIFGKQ

Target: GmhA (Burkholderia pseudomallei, UniProt Q93UJ2)
Conditions: read-out: K 1/2

**Q.** With `O=P(O)(O)OC[C@@H](O)[C@H]1OC(O)(CO)[C@@H](O)[C@@H]1O` (stereo partly shown) [sedoheptulose-7-phosphate] as the compound, how does the Km read?
**A.** The Km was 140 ± 20 µM.
